Anti-infective test results gathered from many reports (values: NIAID ChemDB through PubChem).

Shared fields: growth or infection tests; species: HIV-1; read-out: inhibition

Percent inhibition refers to the dose given; in toxicity tests it is the harm to the cells.

CC(C)C(C)/C=C/[C@@H](C)[C@H]1CCC2C3=C[C@@H](O)[C@@]4(O)C[C@@H](O)CC[C@]4(C)C3CC[C@@]21C ; cells: MT-4 ; read by: cytopathic effect / microscopy ; dose: 15.6 µM ; value: 0%
CC[C@H](C)[C@H](NC(=O)[C@H](C/C=C/c1ccccc1)C[C@H](O)[C@H](Cc1ccccc1)NC(=O)OC(C)(C)C)C(=O)NCc1nc2ccccc2[nH]1 ; strain: IIIB ; cells: H9 ; read by: antigen ; dose: 0.012 µM ; value: 100%
C/C(=C(/CCO)SS/C(CCO)=C(\C)N(C=O)Cc1cnc(C)nc1N)N(C=O)Cc1cnc(C)nc1N ; strain: MN ; cells: H9/HIV-1(MN) + H9 ; read by: p24 ; dose: 125 µM ; value: 90%
NC(=O)NO ; strain: NL4-3 ; cells: PBMC ; read by: p24 ; dose: 1000 µM ; value: 70%
Nc1ncnc2c1ncn2[C@@H]1O[C@H](CO)[C@H]1CO ; strain: IIIB ; cells: ATH8 ; read by: cytopathic effect / trypan blue ; dose: 100 µM ; value: 77%
COc1ccc(CN[C@@H](C(=O)N[C@H](C(=O)NCc2nc3ccccc3[nH]2)C(C)C)[C@H](O)[C@H](Cc2ccccc2)NC(=O)[C@@H](NC(=O)OCc2ccccc2)C(C)(C)C)cc1 ; strain: D747 ; cells: Monocytes + Monocyte ; read by: p24 ; conditions: clinical isolate ; dose: 0.084 µM ; value: 90%
O=C1N(c2ccccc2)c2ccccc2C1(Cc1nccn1Cc1ccccc1)Cc1nccn1Cc1ccccc1 ; strain: RF ; cells: MT-2 ; read by: plaque count ; dose: 11 µM ; value: 72%
Cc1ccnc2c1NC(=O)c1cccnc1N2C1CC1 ; strain: BRU ; cells: HT4 + HT4-6C ; read by: plaque count ; dose: 0.71 µM ; value: 95%
COc1ccccc1CN[C@H]1C2CCN(CC2)[C@H]1C(c1ccccc1)c1ccccc1 ; strain: BaL ; cells: Macrophage + Monocytes/macrophages ; read by: RT activity ; dose: 0.1 µM ; value: 43%
Nc1nc2c(ncn2[C@@H]2C[C@H](CO)[C@H]2CO)c(=O)[nH]1 ; strain: IIIB ; cells: ATH8 ; read by: cytopathic effect / trypan blue ; dose: 10 µM ; value: 90%
Nc1ncnc2c1ncn2[C@H]1CC[C@@H](CO)O1 ; strain: IIIB ; cells: MT-2 ; read by: cytopathic effect / XTT ; dose: 7 µM ; value: 99%
Cc1c(C(C)c2c(Cl)cccc2Cl)nc(SCc2ccc(C#N)cc2)[nH]c1=O ; strain: NL4-3 ; cells: MT-4 ; changes: Y181C ; read by: MTT ; dose: 11.63 µM ; value: 39%
CCOC(=O)N1CCC(CC2C(=O)N(c3ccccc3)c3ccccc32)CC1 ; strain: RF ; cells: MT-2 ; read by: plaque count ; dose: 11.3 µM ; value: 52%
CC(C)(C)NC(=O)[C@@H]1CN(Cc2cccnc2)CCN1C[C@@H](O)C[C@@H](Cc1ccccc1)C(=O)N[C@H]1c2ccccc2C[C@H]1O ; strain: CGP 61755-resistant (PR V32I M46I L63P I84A) ; changes: PR-V32I M46I L63P I84A ; read by: RT activity ; conditions: 10 d ; dose: 2.7 µM ; value: 100%
N[C@@H](CCC(=O)N1C(=O)SC[C@H]1C(=O)O)C(=O)O ; strain: BaL ; cells: Macrophage + Monocytes/macrophages ; read by: RT activity ; dose: 2000 µM ; value: 17%
C=C(C)C(=O)O.C=CC(=O)OCCCC ; strain: IIIB ; cells: H9 ; read by: syncytia ; dose: 7.5 µg/mL ; value: 95%
CC(C)(O)c1cccc(CN2C(=O)N(Cc3cccc(C(C)(C)O)c3)[C@H](Cc3ccccc3)[C@H](O)[C@@H](O)[C@H]2Cc2ccccc2)c1 ; strain: HXB2 ; cells: MT-2/MT-4 + MT-2 ; changes: PR-184V ; read by: p24 ; dose: 0.0722 µM ; value: 90%
COc1ccc(C[C@H]2COC(=O)[C@@H]2Cc2ccc(O[C@@H]3O[C@H](CO)[C@@H](O)[C@H](O)[C@H]3O)c(OC)c2)cc1OC ; strain: IIIB ; cells: H9 ; read by: p24 ; dose: 5 µM ; value: 96%
COc1ccc(C(=O)N2CCN(c3ccc4c(c3)CCC(=O)N4)CC2)cc1OC ; strain: IIIB ; cells: CEM + CEM-SS ; read by: cytopathic effect / XTT ; dose: 32 µg/mL ; value: 82%
CCc1c(Cc2c(Cl)cccc2Cl)nc(SC/C=C/c2ccc(C#N)cc2)[nH]c1=O ; strain: NL4-3 ; cells: MT-4 ; changes: Y181C ; read by: MTT ; dose: 54.82 µM ; value: 41%
COc1cc([C@H]2OC[C@H]3[C@@H]2CO[C@@H]3c2ccc3c(c2)OCO3)cc(OC)c1OC ; strain: IIIB ; cells: H9 ; read by: syncytia ; dose: 10.6 µM ; value: 97%
O=C(c1ccccc1)N1CCC(CC2C(=O)N(c3ccccc3)c3ccccc32)CC1 ; strain: RF ; cells: MT-2 ; read by: plaque count ; dose: 11.3 µM ; value: 70%
Cc1cn([C@H]2C[C@H](F)[C@@H](CO)O2)c(=O)[nH]c1=O ; strain: 121-2(PRE-AZT) ; cells: MT-4 ; read by: p24 / ELISA ; dose: 0.034 µM ; value: 95%
CCOC(=O)[C@@H]1CSC(=O)N1C(=O)CC[C@H](N)C(=O)O ; strain: BaL ; cells: Macrophage + Monocytes/macrophages ; read by: RT activity ; dose: 2000 µM ; value: 63%
CN1CCC(CC2(CC3CCN(C)CC3)C(=O)N(c3ccccc3)c3ccccc32)CC1 ; strain: RF ; cells: MT-2 ; read by: plaque count ; dose: 11 µM ; value: 73%
O[C@H]1OC[C@H](Cc2ccc3c(c2)OCO3)[C@H]1Cc1ccc2c(c1)OCO2 ; strain: IIIB ; cells: H9 ; read by: RT activity ; dose: 12.7 µM ; value: 97%
C[C@H]1CCC/C=C/[C@@H]2C[C@H](O)C[C@H]2[C@@H](O)/C=C/C(=O)O1 ; strain: IIIB ; cells: MOLT-3 ; dose: 10 µg/mL ; value: 97%
COc1ccc(C#CCSc2nc(Cc3c(Cl)cccc3Cl)c(C)c(=O)[nH]2)cc1 ; strain: NL4-3 ; cells: MT-4 ; changes: Y181C ; read by: MTT ; dose: 56.18 µM ; value: 40%
O=C1N(Cc2ccc(CO)cc2)[C@H](Cc2ccccc2)[C@H](O)[C@@H](O)[C@@H](Cc2ccccc2)N1Cc1ccc(CO)cc1 ; strain: A018A PRE-AZT ; cells: MT-2 ; read by: virus yield ; dose: 0.14 µM ; value: 90%
O=C(O)/C=C/c1ccc[c]([Sb](=[O])([OH])[OH])c1 ; strain: 93IN101 R5 clinical isolate ; cells: MAGI ; read by: β-galactosidase ; dose: 10 µM ; value: 88%
Nc1nc(N)c2ncn([C@@H]3C[C@H](CO)[C@H]3CO)c2n1 ; strain: IIIB ; cells: ATH8 ; read by: cytopathic effect / trypan blue ; dose: 100 µM ; value: 46%
COc1cc(C[C@@](O)(C(N)=O)[C@H](CO)Cc2ccc(OC)c(OC)c2)ccc1O ; strain: IIIB ; cells: H9 ; read by: RT activity ; dose: 1.8 µM ; value: 89%
Cc1cn([C@H]2C[C@H](N=[N+]=[N-])[C@@H](CO)O2)c(=O)[nH]c1=O ; cells: MAGI ; read by: β-galactosidase ; dose: 5 µg/mL ; value: 82%
CCCC1(CCC)CC(O)=C(Cc2cccc(NS(=O)(=O)c3cn(C)cn3)c2)C(=O)O1 ; strain: IIIB ; cells: H9 ; dose: 3 µM ; value: 5%
N[C@@H](CCC(=O)N1C(=O)SC[C@H]1C(=O)NCC(=O)O)C(=O)O ; strain: BaL ; cells: Macrophage + Monocytes/macrophages ; read by: RT activity ; dose: 2000 µM ; value: 0%
CC1=C(/C=C/C(C)=C/C=C/C(C)=C/C(=O)O)C(C)(C)CCC1 ; strain: HTLV-III ; cells: MT-4 ; read by: plaque count ; dose: 10 µg/mL ; value: 84%
C[C@H](CC[C@H](O)C(C)(O)CO)[C@H]1CC[C@@]2(C)C3=CCC4C(C)(C)[C@@H](O)CC[C@]4(C)C3=CC[C@]12C ; cells: MT-4 ; read by: cytopathic effect / microscopy ; dose: 1000 µM ; value: 0%
CCN(CCO)CCCC(C)Nc1ccnc2cc(Cl)ccc12 ; strain: IIIB ; cells: CEM ; read by: RT activity ; dose: 1000 µg/mL ; value: 80%
C[C@H](CC(=O)C[C@@H](C)[C@H]1C[C@H](O)[C@@]2(C)C3=C(C(=O)C[C@]12C)[C@@]1(C)CCC(=O)C(C)(C)[C@@H]1C[C@@H]3O)C(=O)O ; cells: MT-4 ; read by: cytopathic effect / microscopy ; dose: 1000 µM ; value: 0%
N/C(=N/O)c1cccc(CN2C(=O)N[C@H](CCc3ccccc3)[C@@H](O)[C@H]2Cc2ccccc2)c1 ; strain: RF ; cells: MT-2 ; read by: cytopathic effect / MTT ; dose: 0.37 µM ; value: 90%
Cc1cn([C@H]2C[C@H](N=[N+]=[N-])[C@@H](CO)O2)c(=O)[nH]c1=O ; strain: IIIB ; cells: ATH8 ; read by: cytopathic effect / trypan blue ; dose: 10 µM ; value: 100%
CC(C)(C)NC(=O)[C@@H]1CCCN1C(=O)[C@@H](O)[C@H](Cc1ccccc1)NC(=O)[C@H](CC(N)=O)NC(=O)c1cnc2ccccc2n1 ; strain: IIIB ; cells: CEM ; read by: p24 ; dose: 0.5 µM ; value: 90%
O=c1[nH]cnc2c1ncn2[C@@H]1C[C@H](CO)[C@H]1CO ; strain: IIIB ; cells: ATH8 ; read by: cytopathic effect / trypan blue ; dose: 500 µM ; value: 4%
CN1CC=C(CC2(CC3=CCN(C)CC3)C(=O)N3c4ccccc4CCc4cccc2c43)CC1 ; strain: RF ; cells: MT-2 ; read by: plaque count ; dose: 11 µM ; value: 74%
C[C@H](CCC=C(CO)CO)[C@H]1CC[C@@]2(C)C3=CC[C@H]4C(C)(C)C(=O)CC[C@]4(C)C3=CC[C@]12C ; cells: MT-4 ; read by: cytopathic effect / microscopy ; dose: 7.8 µM ; value: ~100%

6 of the rows above, restated:

smiles	strain	cells	changes	read by	conditions	dose	value
COc1ccc(CN[C@@H](C(=O)N[C@H](C(=O)NCc2nc3ccccc3[nH]2)C(C)C)[C@H](O)[C@H](Cc2ccccc2)NC(=O)[C@@H](NC(=O)OCc2ccccc2)C(C)(C)C)cc1	D747	Monocytes + Monocyte	-	p24	clinical isolate	0.084 µM	90%
Nc1ncnc2c1ncn2[C@@H]1O[C@H](CO)[C@H]1CO	IIIB	ATH8	-	cytopathic effect / trypan blue	-	100 µM	77%
C[C@H](CC(=O)C[C@@H](C)[C@H]1C[C@H](O)[C@@]2(C)C3=C(C(=O)C[C@]12C)[C@@]1(C)CCC(=O)C(C)(C)[C@@H]1C[C@@H]3O)C(=O)O	-	MT-4	-	cytopathic effect / microscopy	-	1000 µM	0%
CC(C)(C)NC(=O)[C@@H]1CN(Cc2cccnc2)CCN1C[C@@H](O)C[C@@H](Cc1ccccc1)C(=O)N[C@H]1c2ccccc2C[C@H]1O	CGP 61755-resistant (PR V32I M46I L63P I84A)	-	PR-V32I M46I L63P I84A	RT activity	10 d	2.7 µM	100%
COc1ccc(C[C@H]2COC(=O)[C@@H]2Cc2ccc(O[C@@H]3O[C@H](CO)[C@@H](O)[C@H](O)[C@H]3O)c(OC)c2)cc1OC	IIIB	H9	-	p24	-	5 µM	96%
CC1=C(/C=C/C(C)=C/C=C/C(C)=C/C(=O)O)C(C)(C)CCC1	HTLV-III	MT-4	-	plaque count	-	10 µg/mL	84%

Rows are shuffled and stem from different studies. An empty or dashed field is not shown.